# Sequence variants of PSTVd loop 15 after infection

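A pool of all variants was put on leaves of three Nicotiana benthamiana plants. Samples came from the inoculated region at 5 days, the leaf margin at 10 and upper systemic leaves at 12.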

PSTVd intermediate strain, loop 15: wild type GGAAACCGCUACUAC, pool pattern GGAAACCGNNNNNNC; upper and lower strand joined, each 5' to 3', the first 7 letters being the upper strand, closing pairs included.

Values are reads per thousand in the sample; higher means more abundant, 0 means not found.
Each value is the mean of three plants.
"Pool" is the share in the plasmid pool used as inoculum, on the same scale.
The inoculated region was read from the minus strand, the other sites from the plus strand.
IR is the inoculated region, LM the leaf margin, Sys the systemic leaves.
Sequences that differ at fixed positions probably stem from PCR or sequencing errors, and defective variants can be carried along by functional ones.

- GGAAACCGAAGAGCC (pool 0.144) = IR 0.0864; LM 0.00539; Sys 0
- GGAAACCGAAUUCGC (pool 0.240) = IR 0.0812; LM 0.0134; Sys 0
- GGAAACCGAGCUAGC (pool 0.176) = IR 0.0777; LM 0.00742; Sys 0.00537
- GGAAACCGAUAUGAC (pool 0.160) = IR 0.0948; LM 0; Sys 0
- GGAAACCGAUCGCUC (pool 0.208) = IR 0.0790; LM 0.0200; Sys 0
- GGAAACCGAUCUAUC (pool 0.144) = IR 0.0811; LM 0.0200; Sys 0
- GGAAACCGCAAGUGC (pool 0.208) = IR 0.265; LM 0.0988; Sys 0.0587
- GGAAACCGCCGGGCC (pool 0.256) = IR 0.224; LM 0.00668; Sys 0
- GGAAACCGCUCCAUC (pool 0.160) = IR 0.0950; LM 0.0141; Sys 0.00537
- GGAAACCGGAGGUUC (pool 0.192) = IR 0.0850; LM 0.00668; Sys 0
- GGAAACCGGCCCACC (pool 0.144) = IR 0.0732; LM 0.0134; Sys 0.00537
- GGAAACCGGCCCAGC (pool 0.192) = IR 0.0524; LM 0.00668; Sys 0
- GGAAACCGGGAAAGC (pool 0.144) = IR 0.0801; LM 0; Sys 0
- GGAAACCGGGCCUAC (pool 0.256) = IR 0.0976; LM 0.0182; Sys 0.00537
- GGAAACCGGGUUUUC (pool 0.192) = IR 0.151; LM 0.0121; Sys 0
- GGAAACCGGUAAUGC (pool 0.208) = IR 0.297; LM 0.0982; Sys 0.114
- GGAAACCGGUCGUUC (pool 0.176) = IR 0.339; LM 0.120; Sys 0.0765
- GGAAACCGUACUAGC (pool 0.208) = IR 0.0840; LM 0.00539; Sys 0.0107
- GGAAACCGUAUGCUC (pool 0.272) = IR 0.127; LM 0; Sys 0
- GGAAACCGUCCGUUC (pool 0.176) = IR 0.314; LM 0.0995; Sys 0.0948
- GGAAACCGUGAGAUC (pool 0.176) = IR 0.353; LM 0.0807; Sys 0.0594
- GGAAACCGUGAGGUC (pool 0.288) = IR 0.291; LM 0.0690; Sys 0.0699
- GGAAACCGUGGCCAC (pool 0.128) = IR 0.134; LM 0.0267; Sys 0
- GGAAACCGUGUGACC (pool 0.144) = IR 0.0661; LM 0; Sys 0.00760
- GGAAACCGUGUUUCC (pool 0.192) = IR 0.121; LM 0.0275; Sys 0
- GGAAACCGUUACCAC (pool 0.256) = IR 0.321; LM 0.128; Sys 0.0386
- GGAAACCGUUAGGGC (pool 0.144) = IR 0.247; LM 0.125; Sys 0.0462
- GGAAACCGUUCUUCC (pool 0.208) = IR 0.117; LM 0.0202; Sys 0

Extract of 3 entries:

sequence	pool	IR	LM	Sys
GGAAACCGUACUAGC	0.208	0.0840	0.00539	0.0107
GGAAACCGUGUUUCC	0.192	0.121	0.0275	0
GGAAACCGUGUGACC	0.144	0.0661	0	0.00760

Wild type was 33.9 per thousand in the pool and the most common sequence in every sample (inoculated region 202, 200, 159; leaf margin 724, 746, 710; systemic leaves 856, 883, 880).
With 43,870-66,106 reads a sample, very low values are single reads.

From the data files of Wu et al. 2024, doi:10.1371/journal.ppat.1012142.